PubChem BioAssay AID624099 – ICCB-Longwood, 2012

Screen: 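Host factors E2 relies on to silence an HPV18 LCR reporter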 (primary screen)
Cell system: human C33A cervical carcinoma cells (HPV-negative) stably expressing BPV1 E2 and an HPV18 LCR luciferase reporter
Reagent: siRNA pool against human genes, 40 nM
Duration: 72 h
Measured: 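Per-well luciferase luminescence, z-scored on each plate against the plate mean and SD with control wells left out, then averaged across three replicate plates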
Scale: mean z-score and z-score: higher = stronger reporter signal, weaker E2 silencing
Call rule: 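Mean z ≥ 2 together with z ≥ 2 in two or more of the three replicates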
The whole screen tested about 21,000 reagents; this is a part drawn at random. Of all reagents, 497 (2.4%) got an active call. 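Higher z means weaker E2 silencing; only reporter increases were scored, and knock-downs that hurt cell survival may mask genuine repressor factors.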 The numbers tell different reagents against one gene apart. Reagent sequences are not shown.

no.	target	reagent	mean z-score	z-score, replicate A	z-score, replicate B	z-score, replicate C	Call
1	LOC389143 (retired record)	1	0.03	0.61	-0.17	-0.34	inactive
2	TMEM92 (transmembrane protein 92)	1	-0.4	-0.49	-0.48	-0.22	inactive
3	LOC402530 (retired record)	1	1.69	1.72	1.55	1.79	inactive
4	DHRS13 (dehydrogenase/reductase 13)	1	-0.44	-0.29	-0.75	-0.29	inactive
5	EXOC3-AS1 (EXOC3 antisense RNA 1)	1	0.89	1.2	0.38	1.08	inactive
6	LOC389328 (retired record)	1	2.08	2.11	1.97	2.16	active
7	FBXO10 (F-box protein 10)	1	-1.02	-1	-1.12	-0.93	inactive
8	C5AR1 (complement C5a receptor 1)	1	1.42	1.78	1.23	1.26	inactive
9	GPR84 (G protein-coupled receptor 84)	1	-1.09	-1.13	-1	-1.15	inactive
10	ZSCAN12 (zinc finger and SCAN domain containing 12)	1	-0.32	-0.56	-0.17	-0.21	inactive
11	TCN1 (transcobalamin 1)	1	0.04	0.15	-0.14	0.11	inactive
12	PTBP3 (polypyrimidine tract binding protein 3)	1	0.65	0.89	0.55	0.5	inactive
13	ODF2 (outer dense fiber of sperm tails 2)	1	0.58	0.84	0.66	0.23	inactive
14	TAPT1-AS1 (TAPT1 antisense RNA 1)	1	-0.76	-0.4	-1.12	-0.75	inactive
15	SRPK1 (SRSF protein kinase 1)	1	-0.21	-0.27	-0.08	-0.28	inactive
16	APBB1IP	1	0.07	0.01	0.02	0.18	inactive
17	LOC285321 (retired record)	1	0.11	0.17	0.27	-0.09	inactive
18	ACTG2 (actin gamma 2, smooth muscle)	1	0.11	-0.04	-0.1	0.46	inactive
19	SIKE1 (suppressor of IKBKE 1)	1	0.14	0.33	-0.15	0.25	inactive
20	CCL28 (C-C motif chemokine ligand 28)	1	1.06	0.99	1.14	1.04	inactive
21	TNFRSF13B (TNF receptor superfamily member 13B)	1	0.15	0.26	0	0.2	inactive
22	ADORA1 (adenosine A1 receptor)	1	-1.4	-1.31	-1.54	-1.35	inactive
23	SMARCA4	1	-0.05	-0.04	-0.07	-0.04	inactive
24	VSIG2 (V-set and immunoglobulin domain containing 2)	1	0.63	0.64	0.74	0.51	inactive
25	UNC119 (unc-119 lipid binding chaperone)	1	-0.56	-0.46	-0.86	-0.35	inactive
26	ZNF658B (zinc finger protein 658B (pseudogene))	1	0.98	1.52	0.83	0.58	inactive
27	ZNF658B (zinc finger protein 658B (pseudogene))	2	1.14	1.1	1.06	1.27	inactive
28	WNT9A (Wnt family member 9A)	1	-0.32	-0.21	-0.56	-0.19	inactive
29	LOC389059 (retired record)	1	0.43	0.31	0.37	0.62	inactive
30	ARHGEF35 (Rho guanine nucleotide exchange factor 35)	1	1.05	1.39	1.2	0.57	inactive
31	PLA2G2E (phospholipase A2 group IIE)	1	-0.76	-0.69	-0.93	-0.65	inactive
32	PCK1 (phosphoenolpyruvate carboxykinase 1)	1	-2	-1.9	-2.19	-1.91	inactive
33	SETD9 (SET domain containing 9)	1	1.24	1.49	1.28	0.94	inactive
34	LOC389752 (retired record)	1	-1.24	-1.67	-0.83	-1.21	inactive
35	ACBD4 (acyl-CoA binding domain containing 4)	1	1.04	1.05	0.9	1.18	inactive
36	IDH1 (isocitrate dehydrogenase (NADP(+)) 1)	1	-0.06	-0.01	0.09	-0.26	inactive
37	CDKL3 (cyclin dependent kinase like 3)	1	0.05	0.04	-0.18	0.3	inactive
38	SNX15 (sorting nexin 15)	1	0.35	0.72	0.54	-0.19	inactive
39	IL36B (interleukin 36 beta)	1	-0.53	-0.53	-0.42	-0.65	inactive
40	FSTL4 (follistatin like 4)	1	0.71	0.59	0.82	0.72	inactive
41	PGAP6 (post-GPI attachment to proteins 6)	1	-0.67	-1.03	-0.95	-0.04	inactive
42	LMO4 (LIM domain only 4)	1	0.14	0.28	0.11	0.02	inactive
43	GPR3 (G protein-coupled receptor 3)	1	-0.17	-0.13	-0.14	-0.23	inactive
44	ORAI2 (ORAI calcium release-activated calcium modulator 2)	1	-0.77	-0.46	-1	-0.86	inactive
45	TSSK4 (testis specific serine kinase 4)	1	-1.91	-2.72	-1.41	-1.61	inactive
46	STAT1 (signal transducer and activator of transcription 1)	1	1.24	1.4	1.39	0.93	inactive
47	TECTB (tectorin beta)	1	0.13	0.22	-0.03	0.21	inactive
48	TTYH3 (tweety family member 3)	1	1.19	1.13	1.1	1.35	inactive
49	IFI6 (interferon alpha inducible protein 6)	1	-0.09	-0.41	0.06	0.08	inactive
50	TAGLN (transgelin)	1	1.53	1.5	1.7	1.38	inactive
51	TFF3 (trefoil factor 3)	1	1.52	1.44	1.38	1.74	inactive
52	EIF4A1 (eukaryotic translation initiation factor 4A1)	1	-1.02	-0.66	-1.21	-1.2	inactive
53	CDY1B (chromodomain Y-linked 1B)	1	-0.61	-0.89	-0.31	-0.62	inactive
54	DOK1 (docking protein 1)	1	-1.2	-1.06	-1.31	-1.22	inactive
55	PPIAP16 (peptidylprolyl isomerase A pseudogene 16)	1	0.36	0.13	0.35	0.59	inactive
56	LOC440746 (retired record)	1	0.7	0.86	0.77	0.47	inactive
57	TMC2 (transmembrane channel like 2)	1	-1.56	-1.64	-1.5	-1.53	inactive

Already shown: 3 of the entries above.
no.	target	reagent	mean z-score	z-score, replicate A	z-score, replicate B	z-score, replicate C	Call
38	SNX15 (sorting nexin 15)	1	0.35	0.72	0.54	-0.19	inactive
39	IL36B (interleukin 36 beta)	1	-0.53	-0.53	-0.42	-0.65	inactive
40	FSTL4 (follistatin like 4)	1	0.71	0.59	0.82	0.72	inactive
